Anti-infective test results gathered from many reports (values: NIAID ChemDB through PubChem).

Common to all: tests on isolated targets

Blank or dashed fields: not listed here. Fold resistance: result on the changed form divided by that on wild type. a–b is a range or a potency band. ICn: concentration for n% inhibition. Conditions beyond the fields shown may differ between rows. Inhibition is in % at the dose shown (toxicity tests: loss of growth or viability).

smiles	dose	method	agent	protein	read-out	changes	strain	value
COc1ccnc2[nH]cc(C(=O)C(=O)N3CCN(C(=O)c4ccccc4)C[C@H]3C)c12		ELISA	HIV-1	gp120	fold resistance	GP120-V68A	LAI	1
COC(=O)[C@@H](NC(=O)[C@H](Cc1ccccc1)NC(=O)CC(=O)N[C@@H](Cc1ccccc1)C(=O)N[C@H](C(=O)OC)C(C)C)C(C)C	10 µM	absorbance	HIV-1	Protease	inhibition			<10%
CC(C)(C)NC(=O)[C@@H]1C[C@H](c2ccccc2)CN1C(=O)[C@@H](O)[C@H](Cc1ccccc1)NC(=O)[C@H](CC(N)=O)NC(=O)OCc1ccccc1			HIV-1	Protease	IC50			>0.05 µM
Cc1cc(F)c(-n2nnnc2SCC(=O)Nc2ccc(-c3ccc(C(C)(C)C(=O)O)cc3)cc2Cl)c(Cl)c1		PicoGreen / fluorescence	HIV-1	Reverse transcriptase	IC50		WT	<1 µM
CC(C)(C)NC(=O)[C@@H]1C[C@@H]2CCCC[C@@H]2CN1C[C@@H](O)CN(CCc1ccc2c(c1)OCO2)S(=O)(=O)c1cccc(N)c1			HIV	Protease	IC50			89.43 µM
Nc1ccn([C@@H]2CS[C@H](COP(=O)(O)OP(=O)(O)OP(=O)(O)O)O2)c(=O)n1		radiometric	HIV	Reverse transcriptase	fold resistance	RT-Q151M		0.59
CC(C)(C)c1ccc(-n2nnnc2SCC(=O)Nc2ccc(NC(=O)Cc3ccccc3O)cc2Cl)c(Cl)c1		PicoGreen / fluorescence	HIV-1	Reverse transcriptase	IC50	RT-K103 Y181C		<1 µM
NC(=O)c1ccn2c1CS[C@@H]2c1cccnc1	100 µM		HIV-1	Tat:TAR/LTR	inhibition			~39%
NCCCC[C@@H]1NC(=O)[C@H](CCCN=C(N)N)NC(=O)[C@H](Cc2ccccc2)NC(=O)[C@@H](CCCN=C(N)N)NC(=O)[C@H](CCCN=C(N)N)NC1=O		FRET	HIV-1	Tat:TAR/LTR	Ki			15.24 µM
CCCc1cn(Cc2ccc(Cl)c(Cl)c2)c(=O)c2c(O)c(=O)ccn12		ELISA	HIV-1	Integrase	IC50			<0.01 µM
Fc1cccc(Cl)c1-c1nnc2ccc3c(C(F)(F)F)ccnc3n12		fluorescence	HIV-1	gp41	IC50			>100 µM
CC(C)(N)C#Cc1ccc(NC(=O)CSc2nnnn2-c2cc(C(F)(F)F)ccc2Cl)c(Cl)c1		PicoGreen / fluorescence	HIV-1	Reverse transcriptase	IC50		WT	<1 µM
COC1CC[C@@H](OCCCN=C(N)N)[C@@H](COCCCN=C(N)N)O1		FRET	HIV-1	Tat:TAR/LTR	Ki			2.75 µM
O=[N+]([O-])c1ccccc1S(=O)(=O)Nc1ccc(-c2nc3ccccc3[nH]2)cc1		ELISA / entry	HIV-1	gp120 + CD4	IC50			0.02877 µM
CC(C)(C)NC(=O)[C@@H]1CCCN1C(=O)[C@H](O)[C@H](Cc1ccccc1)NC(=O)[C@H](CC(N)=O)NC(=O)OCc1ccccc1	5 µM		HIV-1	Protease	inhibition			4.9%
FC(F)(F)c1cc(C(F)(F)F)c2ccc3nnc(-c4ccccc4)n3c2n1		fluorescence	HIV-1	gp41	IC50			10 µM
NC(N)=NC[C@H]1O[C@H](O[C@H]2[C@H](O)[C@@H](O[C@H]3O[C@@H](CO)[C@H](O)[C@@H](N=C(N)N)[C@@H]3O)[C@H](N=C(N)N)C[C@@H]2N=C(N)N)[C@H](N=C(N)N)C[C@@H]1O		fluorescence	HIV-1	Rev:RRE	IC50			3.8 µM
NC[C@@H]1O[C@H](O[C@H]2[C@@H](O)[C@H](O[C@@H]3[C@@H](O)[C@H](N)C[C@H](N)[C@H]3O[C@H]3O[C@H](CN)[C@@H](O)[C@H](O)[C@H]3N)O[C@@H]2CO)[C@H](N)[C@@H](O)[C@@H]1O		scintillation proximity / radiometric	HIV-1	Rev:RRE	IC50			6 µM
O=C1c2c(O)c(=O)c(-c3ccccn3)cn2CCN1Cc1ccc(F)c(Cl)c1		ELISA	HIV-1	Integrase	IC50			<0.01 µM
CC(C)(C)NC(=O)[C@@H]1CCCN1C(=O)[C@@H](O)[C@H](CC1CCCCC1)NC(=O)[C@H](CC(N)=O)NC(=O)COc1cccc2ccccc12	0.05 µM		HIV-1	Protease	inhibition			79.5%
CC(C)COC(=O)[C@H](Cc1ccccc1)NC(=O)C(NC(=O)OC(C)(C)C)C(=O)N[C@@H](Cc1ccccc1)C(=O)OCC(C)C	10 µM	absorbance	HIV-1	Protease	inhibition			45%
CC(C)(C)NC(=O)[C@@H]1C[C@@H]2CCCC[C@@H]2CN1C[C@@H](O)CN(CCc1cccc(N)c1)S(=O)(=O)c1ccc(N)cc1			HIV	Protease	IC50			7.2 µM
Cc1ccc(-n2nnnc2SCC(=O)Nc2ccc(-c3ccc(CCO)cc3)cc2Cl)c(Cl)c1		PicoGreen / fluorescence	HIV-1	Reverse transcriptase	IC50		WT	<1 µM
O=C(O)c1ccccc1/C=C/c1cc(F)cc(/C=C/C2C=CC=CC2)c1		scintillation proximity / radiometric	HIV-1	Rev:RRE	IC50			5.2 µM
CC(C)(C)c1ccc(S(=O)(=O)Nc2cccc(-c3nc4ccccc4[nH]3)c2)cc1		ELISA / entry	HIV-1	gp120 + CD4	IC50			0.02535 µM
CC(C)(C)NC(=O)[C@@H]1CSCN1C(=O)[C@@H](O)[C@H](Cc1ccccc1)NC(=O)[C@H](CS(C)(=O)=O)NC(=O)CNc1cccc2ccccc12			HIV-1	Protease	IC50			<0.05 µM
O=C1C(=Cc2ccc(-c3cc(Cl)ccc3Cl)o2)SC(=S)N1C1CCS(=O)(=O)C1		scintillation proximity / radiometric	HIV-1	Rev:RRE	IC50			10 µM
CC(C)(O)C#Cc1ccc(NC(=O)CSc2nnnn2-c2cc(F)cc(C(F)(F)F)c2Cl)c(Cl)c1		PicoGreen / fluorescence	HIV-1	Reverse transcriptase	IC50		WT	<1 µM
O=c1ccn2ccn(CCCc3c(Cl)cccc3Cl)c(=O)c2c1O		ELISA	HIV-1	Integrase	IC50			<0.01 µM
CC(C)(C#Cc1ccc(NC(=O)CSc2nnnn2-c2cccc(Cl)c2Cl)c(Cl)c1)C(=O)O		PicoGreen / fluorescence	HIV-1	Reverse transcriptase	IC50	RT-K103 Y181C		<1 µM
CC(C)CN(C[C@H](O)CN1C[C@H]2CCCC[C@H]2C[C@H]1C(=O)NC(C)(C)C)S(=O)(=O)c1ccc(N)cc1			HIV	Protease	IC50			0.02 µM
NC[C@H]1O[C@H](O[C@H]2[C@H](O)[C@@H](O[C@H]3O[C@H](CO)[C@@H](O)[C@H](N)[C@H]3O)[C@H](N)C[C@@H]2N)[C@H](N)[C@@H](O)[C@@H]1O		fluorescence	HIV-1	Rev:RRE	IC50			65 µM
CC(C)COC(=O)[C@H](Cc1ccccc1)NC(=O)N[C@@H](Cc1ccccc1)C(=O)OCC(C)C	10 µM	absorbance	HIV-1	Protease	inhibition			<10%
CN(C)CCCC(=O)NC(C)(C)C#Cc1ccc(NC(=O)CSc2nnnn2-c2ccc(C3CC3)cc2Cl)c(Cl)c1		PicoGreen / fluorescence	HIV-1	Reverse transcriptase	IC50		WT	<1 µM
Cc1ccc(S(=O)(=O)Nc2ccc(Cc3nc4ccccc4[nH]3)cc2)cc1		ELISA / entry	HIV-1	gp120 + CD4	IC50			0.02334 µM
CC(C)Cc1cc(-c2ccc(-c3ccc(CCC(=O)O)cc3CC(C)C)cc2C(C)C)ccc1OCC(=O)O		ELISA	HIV-1	gp41	IC50			13.18 µg/mL
COC(=O)[C@@H](NC(=O)CCC(O)CCC(=O)N[C@H](C(=O)OC)C(C)C)C(C)C	10 µM	absorbance	HIV-1	Protease	inhibition			<10%
CC(C)(C)c1ccc(-n2nnnc2SCC(=O)Nc2ccc(NC(=O)Cc3cccnc3)cc2Cl)c(Cl)c1		PicoGreen / fluorescence	HIV-1	Reverse transcriptase	IC50		WT	<1 µM
CC(C)(C)NC(=O)[C@@H]1C[C@@H]2CCCC[C@@H]2CN1C[C@@H](O)CN(CCc1cccc([N+](=O)[O-])c1)S(=O)(=O)c1ccc([N+](=O)[O-])cc1			HIV	Protease	IC50			33.16 µM
CC(C)c1ccc(-n2nnnc2SCC(=O)Nc2ccc(-c3ccc(OCCN4CCCC4)cc3)cc2Cl)c(Cl)c1		PicoGreen / fluorescence	HIV-1	Reverse transcriptase	IC50		WT	<1 µM
O=c1c(-c2ccccn2)cn2ccn(Cc3cccc(F)c3)c(=O)c2c1O		ELISA	HIV-1	Integrase	IC50			0.01–0.1 µM
CCS(=O)(=O)NC(=O)C(C)(C)C#Cc1ccc(NC(=O)CSc2nnnn2-c2ccc(C3CC3)cc2Cl)c(Cl)c1		PicoGreen / fluorescence	HIV-1	Reverse transcriptase	IC50	RT-K103 Y181C		<1 µM
O=C(O)CCN1C(=O)/C(=C\c2ccc(-c3ccccc3Cl)o2)SC1=S		scintillation proximity / radiometric	HIV-1	Rev:RRE	IC50			90 µM
CCCOC(=O)[C@H](Cc1ccccc1)NC(=O)C(=O)N[C@@H](Cc1ccccc1)C(=O)OCCC	10 µM	absorbance	HIV-1	Protease	inhibition			<10%
CN1CCN(C(=O)COC(C)(C)C#Cc2ccc(NC(=O)CSc3nnnn3-c3ccc(C(C)(C)C)cc3Cl)c(Cl)c2)CC1		PicoGreen / fluorescence	HIV-1	Reverse transcriptase	IC50		WT	<1 µM
COc1ccc(S(=O)(=O)N(CCc2cccc([N+](=O)[O-])c2)C[C@H](O)CN2C[C@H]3CCCC[C@H]3C[C@H]2C(=O)NC(C)(C)C)cc1			HIV	Protease	IC50			19.73 µM
CC[C@H](C)[C@H](NC(=O)[C@@H](C[C@H](O)[C@H](CC(C)C)NC(=O)[C@H](CC(N)=O)NC(=O)[C@H](CCC(N)=O)NC(=O)[C@H](CO)NC(=O)[C@@H](N)C(C)C)C(C)C)C(=O)N[C@H](C(=O)O)C(C)C			HIV-2	Protease	Ki			0.009 µM
NC(N)=NC[C@@H]1O[C@H](O[C@H]2[C@H](O)[C@@H](O[C@H]3O[C@@H](CO)[C@H](O)[C@@H](N=C(N)N)[C@@H]3O)[C@H](N=C(N)N)C[C@@H]2N=C(N)N)[C@@H](N=C(N)N)[C@H](O)[C@H]1O		fluorescence	HIV-1	Rev:RRE	IC50			44 µM
FC(F)(F)c1cc(C(F)(F)F)c2ccc3nnc(-c4cccs4)n3c2n1		fluorescence	HIV-1	gp41	IC50			~4.5 µM
CC(C)(C)c1ccc(S(=O)(=O)Nc2ccc(-c3nc4ccccc4[nH]3)cc2)cc1		ELISA / entry	HIV-1	gp120 + CD4	IC50			0.02745 µM
CC(C)=CCC/C(C)=C/CC/C(C)=C/CC/C(C)=C/CC/C(C)=C/CC/C(C)=C/Cc1cc(O)ccc1O		nucleotide incorporation	HIV-2	Reverse transcriptase	IC50			1.2 µM
CC(C)Cc1cc(-c2ccc(-c3ccc(CCCN)cc3CC(C)C)cc2C(C)C)ccc1OCCN		ELISA	HIV-1	gp41	IC50			>100 µg/mL
COC(C)(C)C#Cc1ccc(NC(=O)CSc2nnnn2-c2ccc(C3CC3)cc2Cl)c(Cl)c1		PicoGreen / fluorescence	HIV-1	Reverse transcriptase	IC50	RT-K103 Y181C		<1 µM
CC(=O)Nc1ccc(-c2nc3ccc(NC(C)=O)cc3[nH]2)cc1		scintillation proximity / radiometric	HIV-1	Rev:RRE	IC50			>90 µM
CC(C)COC(=O)[C@H](Cc1ccccc1)NC(=O)C(=O)N[C@@H](Cc1ccccc1)C(=O)OCC(C)C	10 µM	absorbance	HIV-1	Protease	inhibition			40%
CC(C)(C)c1ccc(-n2nnnc2SCC(=O)Nc2ccc(S(=O)(=O)NCCO)cc2Cl)c(Cl)c1		PicoGreen / fluorescence	HIV-1	Reverse transcriptase	IC50	RT-K103 Y181C		<1 µM
CC(C)(C)c1ccc(S(=O)(=O)Nc2ccc(Cc3nc4ccccc4[nH]3)cc2)cc1		ELISA / entry	HIV-1	gp120 + CD4	IC50			0.02174 µM
COC(=O)Cc1ccc(-c2ccc(NC(=O)CSc3nnnn3-c3ccc(C)cc3Cl)c(Cl)c2)cc1		PicoGreen / fluorescence	HIV-1	Reverse transcriptase	IC50		WT	<1 µM
CC(C)(C)NC(=O)[C@@H]1CCCN1C(=O)[C@@H](O)[C@H](Cc1ccccc1)NC(=O)[C@H](CS(N)(=O)=O)NC(=O)COc1cccc2ccccc12	0.05 µM		HIV-1	Protease	inhibition			29.5%
CC(C)(C)c1ccc(-n2nnnc2SCC(=O)Nc2ccc(OCC(=O)NCc3ccco3)cc2Cl)c(Cl)c1		PicoGreen / fluorescence	HIV-1	Reverse transcriptase	IC50	RT-K103 Y181C		<1 µM
O=C(CN1CCCC1)Nc1ccc(Cc2ccc(NC(=O)CN3CCCC3)cc2)cc1		binding	HIV	Integrase	IC50			7.29 µM
CC(C)(C#Cc1ccc(NC(=O)CSc2nnnn2-c2cc(C3CC3)cc(C(F)(F)F)c2Cl)c(Cl)c1F)NC(=O)c1ccc[n+]([O-])c1		PicoGreen / fluorescence	HIV-1	Reverse transcriptase	IC50		WT	<1 µM
NCCCC[C@@H]1NC(=O)[C@H](CCCN=C(N)N)NC(=O)[C@H](Cc2ccccc2)NC(=O)[C@H](CCCN=C(N)N)NC(=O)[C@@H](CCCN=C(N)N)NC1=O		FRET	HIV-1	Tat:TAR/LTR	Ki			8.28 µM
O=C(O)CCN1C(=O)/C(=C\c2ccc(-c3ccccc3)o2)SC1=S		scintillation proximity / radiometric	HIV-1	Rev:RRE	IC50			40 µM
N=[N+](N)C[C@H]1O[C@H](O[C@H]2[C@@H](O)[C@H](O[C@H]3[C@H](O)[C@@H]([N+](=N)N)C[C@@H](N=C(N)N)[C@H]3O[C@@H]3O[C@@H](CO)[C@H](O)[C@@H](O)[C@@H]3[N+](=N)N)O[C@@H]2CO)[C@@H](N=C(N)N)[C@H](O)[C@H]1O		fluorescence	HIV-1	Rev:RRE	IC50			6 µM
CC(C)c1ccc(-n2nnnc2SCC(=O)Nc2ccc(-c3ccc(C(C)(C)C(=O)O)cc3)cc2Cl)c(Cl)c1		PicoGreen / fluorescence	HIV-1	Reverse transcriptase	IC50	RT-K103 Y181C		<1 µM
CC(C)(C)NC(=O)[C@H]1N(C(=O)[C@@H](O)[C@H](Cc2ccccc2)NC(=O)[C@H](CC(N)=O)NC(=O)COc2cccc(-c3ccccc3)c2)CSC1(C)C	0.05 µM		HIV-1	Protease	inhibition			98.9%
Nc1ccc(C(=O)Nc2ccc(-c3nc4ccc(NC(=O)c5ccc(N)cc5)cc4[nH]3)cc2)cc1		scintillation proximity / radiometric	HIV-1	Rev:RRE	IC50			7.7 µM